Test results reported in patent US6958151B2 (priority 2002, dated 2005).

Chains of the proteins cited; added tags and fusions are not shown. Lines headed by an entry give the natural chain unless they say otherwise; changes in a name come on top.
UniProt P29837: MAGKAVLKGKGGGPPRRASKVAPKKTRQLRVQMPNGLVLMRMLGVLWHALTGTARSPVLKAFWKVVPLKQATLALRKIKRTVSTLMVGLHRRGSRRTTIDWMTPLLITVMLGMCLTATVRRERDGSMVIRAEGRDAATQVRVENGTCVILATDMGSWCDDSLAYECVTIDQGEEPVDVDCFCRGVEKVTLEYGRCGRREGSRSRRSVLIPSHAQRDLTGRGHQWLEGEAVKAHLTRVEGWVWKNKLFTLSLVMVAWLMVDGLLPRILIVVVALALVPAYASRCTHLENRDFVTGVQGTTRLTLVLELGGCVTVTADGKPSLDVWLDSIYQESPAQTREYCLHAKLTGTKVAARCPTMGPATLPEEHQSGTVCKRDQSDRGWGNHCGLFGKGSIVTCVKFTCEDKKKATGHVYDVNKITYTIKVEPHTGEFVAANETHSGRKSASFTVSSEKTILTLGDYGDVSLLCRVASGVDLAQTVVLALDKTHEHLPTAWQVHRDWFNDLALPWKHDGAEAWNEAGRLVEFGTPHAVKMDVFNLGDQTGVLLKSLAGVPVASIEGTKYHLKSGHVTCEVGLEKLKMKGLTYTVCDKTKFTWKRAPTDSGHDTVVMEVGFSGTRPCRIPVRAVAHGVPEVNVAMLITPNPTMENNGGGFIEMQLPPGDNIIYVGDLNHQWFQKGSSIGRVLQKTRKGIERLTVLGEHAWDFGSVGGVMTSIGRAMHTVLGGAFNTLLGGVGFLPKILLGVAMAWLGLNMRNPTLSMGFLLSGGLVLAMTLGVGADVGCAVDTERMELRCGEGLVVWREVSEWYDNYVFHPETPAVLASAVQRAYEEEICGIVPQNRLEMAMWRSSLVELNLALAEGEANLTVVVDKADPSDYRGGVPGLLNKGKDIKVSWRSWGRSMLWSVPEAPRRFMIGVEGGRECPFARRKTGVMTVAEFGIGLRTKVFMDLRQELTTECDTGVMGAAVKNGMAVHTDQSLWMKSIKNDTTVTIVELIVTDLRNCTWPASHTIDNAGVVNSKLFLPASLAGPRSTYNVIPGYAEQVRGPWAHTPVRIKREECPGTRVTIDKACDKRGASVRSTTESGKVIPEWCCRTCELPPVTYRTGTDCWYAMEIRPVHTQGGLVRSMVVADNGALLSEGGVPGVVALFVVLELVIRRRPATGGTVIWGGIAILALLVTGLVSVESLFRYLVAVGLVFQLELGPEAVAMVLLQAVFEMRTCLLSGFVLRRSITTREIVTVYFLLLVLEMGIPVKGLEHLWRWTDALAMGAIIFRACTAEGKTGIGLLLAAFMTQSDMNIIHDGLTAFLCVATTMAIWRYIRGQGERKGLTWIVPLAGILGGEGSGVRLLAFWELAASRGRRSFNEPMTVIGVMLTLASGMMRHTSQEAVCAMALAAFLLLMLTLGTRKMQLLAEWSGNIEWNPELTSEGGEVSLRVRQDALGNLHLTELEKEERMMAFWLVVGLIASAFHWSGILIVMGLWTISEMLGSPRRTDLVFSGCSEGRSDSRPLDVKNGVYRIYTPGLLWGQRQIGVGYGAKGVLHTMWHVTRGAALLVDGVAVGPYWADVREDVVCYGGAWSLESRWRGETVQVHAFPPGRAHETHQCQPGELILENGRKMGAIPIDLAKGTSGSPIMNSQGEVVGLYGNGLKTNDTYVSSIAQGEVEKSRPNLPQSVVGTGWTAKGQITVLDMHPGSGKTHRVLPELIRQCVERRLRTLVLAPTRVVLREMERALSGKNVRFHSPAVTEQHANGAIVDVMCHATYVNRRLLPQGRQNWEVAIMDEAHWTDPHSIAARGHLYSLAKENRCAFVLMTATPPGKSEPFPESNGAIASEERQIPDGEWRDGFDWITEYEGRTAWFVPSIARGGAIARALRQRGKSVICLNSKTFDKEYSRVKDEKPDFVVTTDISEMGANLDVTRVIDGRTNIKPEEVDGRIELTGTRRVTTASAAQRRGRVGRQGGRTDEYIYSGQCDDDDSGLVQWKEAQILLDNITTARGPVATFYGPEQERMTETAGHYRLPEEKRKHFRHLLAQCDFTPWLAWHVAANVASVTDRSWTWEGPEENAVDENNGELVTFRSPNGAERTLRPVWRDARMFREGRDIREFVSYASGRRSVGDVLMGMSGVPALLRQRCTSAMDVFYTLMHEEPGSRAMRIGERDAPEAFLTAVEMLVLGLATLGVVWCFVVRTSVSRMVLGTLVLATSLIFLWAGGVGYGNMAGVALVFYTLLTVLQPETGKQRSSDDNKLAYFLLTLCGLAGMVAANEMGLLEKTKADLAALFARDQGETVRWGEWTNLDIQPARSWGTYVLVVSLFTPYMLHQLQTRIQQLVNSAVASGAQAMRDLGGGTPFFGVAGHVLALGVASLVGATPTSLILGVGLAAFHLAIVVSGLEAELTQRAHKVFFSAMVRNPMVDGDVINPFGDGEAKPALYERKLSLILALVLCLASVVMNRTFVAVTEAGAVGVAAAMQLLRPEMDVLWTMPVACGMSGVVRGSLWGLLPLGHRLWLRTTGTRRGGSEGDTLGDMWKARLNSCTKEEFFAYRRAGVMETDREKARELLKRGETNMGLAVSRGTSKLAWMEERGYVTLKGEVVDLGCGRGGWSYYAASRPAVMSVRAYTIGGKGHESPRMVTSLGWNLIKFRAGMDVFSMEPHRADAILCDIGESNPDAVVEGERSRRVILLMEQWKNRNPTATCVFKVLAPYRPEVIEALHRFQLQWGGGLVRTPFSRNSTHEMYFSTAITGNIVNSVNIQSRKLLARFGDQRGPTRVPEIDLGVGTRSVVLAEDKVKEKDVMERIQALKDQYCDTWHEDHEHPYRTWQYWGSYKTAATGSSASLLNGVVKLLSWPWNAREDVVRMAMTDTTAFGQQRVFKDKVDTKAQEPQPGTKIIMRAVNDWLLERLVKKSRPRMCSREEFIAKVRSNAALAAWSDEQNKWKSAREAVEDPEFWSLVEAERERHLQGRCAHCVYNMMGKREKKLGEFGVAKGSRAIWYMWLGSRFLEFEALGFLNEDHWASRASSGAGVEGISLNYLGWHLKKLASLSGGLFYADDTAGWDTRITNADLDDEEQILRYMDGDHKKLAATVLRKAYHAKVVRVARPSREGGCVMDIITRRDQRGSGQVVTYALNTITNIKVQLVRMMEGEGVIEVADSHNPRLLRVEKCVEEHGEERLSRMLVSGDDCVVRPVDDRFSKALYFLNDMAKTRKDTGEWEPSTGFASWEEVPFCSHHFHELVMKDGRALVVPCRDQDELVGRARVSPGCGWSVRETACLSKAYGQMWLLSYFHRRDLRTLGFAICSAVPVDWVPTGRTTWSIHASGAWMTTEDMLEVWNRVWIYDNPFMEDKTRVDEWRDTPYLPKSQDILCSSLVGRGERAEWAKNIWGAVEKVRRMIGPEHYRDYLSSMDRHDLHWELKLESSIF

target: LGT-E-D3 (Langat virus, UniProt P29837); test: Phage display selection by binding to E-D3

Sequence	selected by binding (phage display)
RCCGYACKEGKNCR	selected by binding to LGT-E-D3
RCCTAVCKEGKKCR	selected by binding to LGT-E-D3
RCCVLACKEGKKCR	selected by binding to LGT-E-D3
